Laboratory results: paper PMC11142717, “Structure and flexibility of the DNA polymerase holoenzyme of vaccinia virus” (2024)

Target: VACV E9 with an uncleaved His-tag (isolated polymerase, construct of ref. 21), vaccinia virus (VACV), P20509 2-1006
Assay: BLI

## A20(304-426), C-terminal domain of VACV A20
  result: binds
